Measured values taken from ChEMBL document CHEMBL1140148, “Structure-activity studies on a series of a 2-aminopyrimidine-containing histamine H4 receptor ligands” (J Med Chem, 2008).

Sequences of proteins named here, by UniProt entry; tags and fusion partners are left off. A change or cut given only in a name is not applied to a line headed by its entry.
UniProt Q9H3N8: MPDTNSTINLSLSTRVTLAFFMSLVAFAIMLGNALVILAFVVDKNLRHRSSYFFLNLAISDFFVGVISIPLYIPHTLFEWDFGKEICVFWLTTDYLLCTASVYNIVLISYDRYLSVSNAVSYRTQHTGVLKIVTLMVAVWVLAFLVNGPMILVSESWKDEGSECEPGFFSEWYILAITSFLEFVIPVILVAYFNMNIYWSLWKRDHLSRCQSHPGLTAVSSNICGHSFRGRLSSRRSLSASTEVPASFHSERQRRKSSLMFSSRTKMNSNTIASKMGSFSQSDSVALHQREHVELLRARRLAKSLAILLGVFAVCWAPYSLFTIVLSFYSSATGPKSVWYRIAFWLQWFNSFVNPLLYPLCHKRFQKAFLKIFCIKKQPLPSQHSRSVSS

Biological target: Histamine H4 receptor (Homo sapiens, UniProt Q9H3N8)
Details: HEK293

CN1CCN(c2cc(-c3ccc(C#N)cc3)nc(N)n2)CC1
pKb: 8.53
